Compound potency records, mixed from different reports. Data source: NIAID ChemDB in PubChem.

Common to all: whole-cell or culture tests; species: HIV-1; endpoint: inhibition

Neighbouring rows are from separate reports. Blank or dashed fields: not listed here. Percent inhibition refers to the dose given; in toxicity tests it is the harm to the cells.

structure,tested at,read by,strain,conditions,cell line,value
NCC(=O)N1CCC[C@H]1C(=O)NCC(=O)N[C@H](C=O)CCCN=C(N)N,25 µg/mL,p24,IIIB,-,H9,0%
COc1cc(O)c2c(c1)C(=O)c1c(cc3c(c1O)-c1c(cc(C)c(C(=O)N[C@H](C)C(=O)O)c1O)[C@H](O)[C@H]3O)C2=O,30 µg/mL,antigen,IIIB,-,MT-4,<10%
CC(=O)Nc1ccc(/C=C/c2ccc(N=C=S)cc2S(=O)(=O)O)c(S(=O)(=O)O)c1,25 µg/mL,syncytia,GB8,-,JM,37%
C/C=C(\C)C(=O)O[C@@H]1[C@@H](OC(=O)/C(C)=C/C)[C@]2(C)[C@@H](C(C)=O)CC[C@@]23O[C@]32CC[C@H]3C[C@@H](O[C@H]4C[C@@H](OC)C(O[C@@H]5OC(C)C(O[C@@H]6OC(CO)C(O)[C@H](O)C6O)[C@H](OC)C5O)C(C)O4)CC[C@]3(C)[C@@H]12,30 µM,luciferase,-,pseudotyped,SupT1,39.26%
O=C1N(Cc2ccc(CO)cc2)[C@H](Cc2ccccc2)[C@H](O)[C@@H](O)[C@@H](Cc2ccccc2)N1Cc1ccc(CO)cc1,0.25 µM,p24,A018C POST AZT,-,PBMC,90%
Cc1cn([C@H]2C[C@H](N=[N+]=[N-])[C@@H](CO)O2)c(=O)[nH]c1=O,1 µM,RT activity,LAV-Bru,14 d,U-937,0%
COc1cc(O)c2c(c1)C(=O)c1c(cc3c(c1O)-c1c(cc(C)c(C(=O)N[C@H](C)C(=O)O)c1O)[C@H](O[C@@H]1O[C@H](C)[C@H](O)[C@H](O[C@@H]4OC[C@@H](O)[C@H](O)[C@H]4O)[C@H]1O)[C@H]3O)C2=O,10 µg/mL,syncytia,IIIB,-,MOLT-4,100%
NC(N)=NCCC[C@@H](C=O)NC(=O)CNC(=O)[C@@H]1CCCN1,25 µg/mL,syncytia,IIIB,-,H9,0%
CCNc1cccnc1N1CCN(C(=O)c2cc3cc(OC)ccc3[nH]2)CC1,1 µM,-,LAV,-,MT-2,83%
CC(=O)N1CCC(C(=O)N(CCCN2CCC(Cc3ccc(C(N)=O)cc3)CC2)c2ccc(C)c(Cl)c2)CC1,0.004 µM,p24,HHA R5 clinical isolate,-,PBMC,90%
Cc1cn([C@H]2C[C@H](N=[N+]=[N-])[C@@H](COP(=O)(O)OC[C@H]3OC(O)[C@@H](O)[C@@H](O)[C@@H]3O)O2)c(=O)[nH]c1=O,5 µM,RT activity,LAV-Bru,26 d,CEM,0%
COC(=O)[C@@H](C)NC(=O)c1c(C)cc2c(c1O)-c1c(cc3c(c1O)C(=O)c1cc(OC)cc(O)c1C3=O)[C@H](O)[C@H]2O[C@@H]1O[C@H](C)[C@H](N)[C@H](O[C@@H]2OC[C@@H](O)[C@H](O)[C@H]2O)[C@H]1O,10 µg/mL,antigen,IIIB,-,MT-4,<10%
Cc1cn([C@H]2C[C@H](N=[N+]=[N-])[C@@H](CO)O2)c(=O)[nH]c1=O,0.3 µM,syncytia,LAV-1,-,MT-2,>99%
NC(N)=NCCC[C@H](N)C(=O)NCC(=O)N1CCC[C@H]1C(=O)NCC=O,25 µg/mL,p24,ELI,-,HUT,0%
CC(C)[C@H](NC(=O)c1ccc2ccccc2n1)C(=O)N[C@@H](Cc1ccccc1)[C@H](O)CN1CC[C@@H](OCc2ccncc2)C[C@H]1C(=O)NC(C)(C)C,0.005 µM,p24,HXB2,-,C8166,90%
Nc1ccn([C@H]2CC[C@@H](CO)O2)c(=O)n1,0.2 µM,RT activity,BZ X4,-,PBL (activated) + PBL,96%
COC(=O)[C@@H](C)NC(=O)c1c(C)cc2c(c1O)-c1c(cc3c(c1O)C(=O)c1cc(OC)cc(O)c1C3=O)[C@H](O)[C@H]2O[C@@H]1O[C@H](C)[C@H](O)[C@H](O[C@@H]2OC[C@@H](O)[C@H](O)[C@H]2O)[C@H]1O,10 µg/mL,antigen,IIIB,-,MT-4,<10%
CCCC(=O)O[C@H]1CN2CC[C@H](O)[C@@H]2[C@@H](O)[C@@H]1O,4 µM,-,RF,-,H9,90%
CC1(C)O[C@@H]1COc1c2occc2cc2ccc(=O)oc12,25 µM,luciferase,NL4-3 Recombinant VSV-pseudotyped,-,MT-2,50%
O=c1[nH]cnc2c1ncn2[C@H]1CC[C@@H](CO)O1,9 µM,RT activity,SF162 R5,-,PBL (resting) + PBL,100%
c1cc(CN2CCCNCCNCCCNCC2)ccc1CN1CCCNCCNCCCNCC1,0.1 µM,p24,DJ258 CLADE A R5,-,PBMC,0%
C/C=C(\C)C(=O)O[C@@H]1[C@@H](OC(=O)c2ccccc2)[C@]2(C)[C@@H](C(C)=O)CC[C@@]23O[C@]32CC[C@H]3C[C@@H](O[C@H]4C[C@@H](OC)C(O[C@@H]5OC(C)C(O[C@@H]6OC(CO)C(O[C@@H]7OC(CO)C(O)[C@H](O)C7O)[C@H](O)C6O)[C@H](OC)C5O)C(C)O4)CC[C@]3(C)[C@@H]12,30 µM,luciferase,-,pseudotyped,SupT1,21.19%
Cc1ccnc2c1NC(=O)c1cccnc1N2C1CC1,0.01 µM,syncytia,LAV-1,-,HT4 + HT4-6C,19%
O=C(O)P(=O)(O)O,128 µM,RT activity,IIIB,28 d,PBL,83%
Cc1cn([C@H]2C=C[C@@H](CO)O2)c(=O)[nH]c1=O,4 µM,RT activity,SF162 R5,-,PBL (resting) + PBL,24%
COC(=O)[C@@H]1C2CCC(C[C@@H]1OC(=O)c1ccccc1)N2C,50 µg/mL,p24,IIIB,-,SupT1 + Sup-T1,<0%
Cc1cn([C@H]2C[C@H](N=[N+]=[N-])[C@@H](COP(=O)(O)OC[C@H]3OC(O)[C@H](O)[C@@H](O)[C@@H]3O)O2)c(=O)[nH]c1=O,1 µM,RT activity,LAV-Bru,11 d,U-937,0%
CN1C(=O)CN(c2ccccc2)Cc2nc(Cl)ccc21,7.5 µg/mL,syncytia,BRU,-,MT-4,100%
C/C=C(\C)C(=O)O[C@H]1[C@H]2[C@@H](CC=C3C[C@@H](O[C@H]4C[C@@H](OC)[C@H](O[C@@H]5OC(C)[C@@H](O[C@@H]6OC(CO)[C@@H](O)[C@H](O)C6O)[C@H](OC)C5O)C(C)O4)CC[C@@]32C)[C@@]2(O)CC[C@H](C(C)=O)[C@@]2(C)[C@@H]1OC(=O)/C(C)=C/C,30 µM,luciferase,-,pseudotyped,SupT1,25.14%
OC[C@H]1O[C@@H](n2cnc3cc(Cl)c(Cl)cc32)[C@H](O)[C@@H]1O,50 µM,luciferase,NL4-3 Recombinant VSV-pseudotyped,-,HeLa,65%
O=C(O)P(=O)(O)O,30 µM,p24 / antigen,IIIB,2 d,H9,0%
COC(=O)[C@@H](C)NC(=O)c1c(C)cc2c(c1O)-c1c(cc3c(c1O)C(=O)c1cc(OC)cc(O)c1C3=O)[C@H](O)[C@H]2O[C@@H]1O[C@H](CO)[C@H](N)[C@H](O)[C@H]1O,30 µg/mL,antigen,IIIB,-,MT-4,76%
S=C1CN(c2ccccc2)Cc2nc(Cl)ccc2N1,2.5 µg/mL,syncytia,BRU,-,MT-4,33%
C/C(=C(/CCOC(=O)C(C)C)SS/C(CCOC(=O)C(C)C)=C(\C)N(C=O)Cc1cnc(C)nc1N)N(C=O)Cc1cnc(C)nc1N,50 µM,p24,IIIB,-,MOLT-4/HIV-1(IIIB) + MOLT-4,0%
Cc1cn([C@H]2C[C@H](N=[N+]=[N-])[C@@H](CO)O2)c(=O)[nH]c1=O,0.067 µg/mL,syncytia,BRU,-,MT-4,100%
C/C=C(\C)C(=O)O[C@@H]1[C@@H](OC(=O)c2ccccc2)[C@H]2[C@@H](CC[C@H]3C[C@@H](O[C@H]4C[C@@H](OC)[C@H](O[C@@H]5OC(C)[C@@H](O[C@@H]6OC(CO)[C@@H](O[C@@H]7OC(CO)[C@@H](O)[C@H](O)C7O)[C@H](O)C6O)[C@H](OC)C5O)C(C)O4)CC[C@@]32C)[C@@]2(O)CC[C@H](C(C)=O)[C@@]12C,30 µM,luciferase,-,pseudotyped,SupT1,24.15%
CCC[C@@]1(CCc2ccccc2)CC(O)=C([C@H](CC)c2cccc(NS(=O)(=O)c3ccc(C(F)(F)F)cn3)c2)C(=O)O1,0.16 µM,p24,IIIB,-,H9,90%
CCCCCCCCCCCCCCCCOCC(Cl)COP(=O)([O-])OCC[N+](C)(C)C,10 µM,RT activity,IIIB,-,H9,61%
NCC(=O)N1CCC[C@H]1C(=O)NCC=O,25 µg/mL,p24,IIIB,-,H9,44.2%
COc1ccc(CN[C@@H](C(=O)N[C@H]2c3ccccc3C[C@H]2O)[C@H](O)[C@H](Cc2ccccc2)NC(=O)[C@@H](NC(=O)OCc2ccccc2)C(C)(C)C)cc1,0.11 µM,p24,A018A,-,Primary T4 cells + T4,90%
NC(N)=NCCC[C@@H](C=O)NC(=O)CNC(=O)[C@@H]1CCCN1C(=O)CNC(=O)[C@@H](N)CCCN=C(N)N,250 µg/mL,syncytia,IIIB,-,H9,0%
Cc1cn([C@H]2C[C@H](N=[N+]=[N-])[C@@H](CCP(O[Si](C)(C)C)O[Si](C)(C)C)O2)c(=O)[nH]c1=O,400 µM,β-galactosidase,NL4.3 p24 antigen,-,MAGI,0%
Cc1cn([C@H]2C[C@H](N=[N+]=[N-])[C@@H](CO)O2)c(=O)[nH]c1=O,0.01 µM,syncytia,LAV-1,-,HT4 + HT4-6C,54%
COc1cc(O)c2c(=O)oc3cc(O)cc(C)c3c2c1,180 µM,p24 / ELISA,NL4-3,3 d,PBMC,75%
Oc1ccc(/C=C/c2cc(O)cc(O)c2)cc1,5 µM,p24,EJC-X2,clinical isolate,PBMC,15%
CC(=O)[C@H]1CC[C@H]2[C@@H]3CCC4=CC(=O)CC[C@]4(C)[C@H]3CC[C@]12C,0.1 µM,p24,-,-,U1,40.5%

6 of the rows above, restated:

| structure | tested at | read by | strain | conditions | cell line | value |
|---|---|---|---|---|---|---|
| O=C(O)P(=O)(O)O | 128 µM | RT activity | IIIB | 28 d | PBL | 83% |
| NCC(=O)N1CCC[C@H]1C(=O)NCC(=O)N[C@H](C=O)CCCN=C(N)N | 25 µg/mL | p24 | IIIB | - | H9 | 0% |
| NC(N)=NCCC[C@@H](C=O)NC(=O)CNC(=O)[C@@H]1CCCN1 | 25 µg/mL | syncytia | IIIB | - | H9 | 0% |
| CC(=O)N1CCC(C(=O)N(CCCN2CCC(Cc3ccc(C(N)=O)cc3)CC2)c2ccc(C)c(Cl)c2)CC1 | 0.004 µM | p24 | HHA R5 clinical isolate | - | PBMC | 90% |
| C/C=C(\C)C(=O)O[C@@H]1[C@@H](OC(=O)c2ccccc2)[C@H]2[C@@H](CC[C@H]3C[C@@H](O[C@H]4C[C@@H](OC)[C@H](O[C@@H]5OC(C)[C@@H](O[C@@H]6OC(CO)[C@@H](O[C@@H]7OC(CO)[C@@H](O)[C@H](O)C7O)[C@H](O)C6O)[C@H](OC)C5O)C(C)O4)CC[C@@]32C)[C@@]2(O)CC[C@H](C(C)=O)[C@@]12C | 30 µM | luciferase | - | pseudotyped | SupT1 | 24.15% |
| CCC[C@@]1(CCc2ccccc2)CC(O)=C([C@H](CC)c2cccc(NS(=O)(=O)c3ccc(C(F)(F)F)cn3)c2)C(=O)O1 | 0.16 µM | p24 | IIIB | - | H9 | 90% |